PubChem BioAssay AID624099 | ICCB-Longwood | 2012
Purpose: 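Knock-downs relieving repression by E2 of an HPV18 LCR luciferase reporter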 (primary screen). Cells: human C33A cervical carcinoma cells (HPV-negative) stably expressing BPV1 E2 and an HPV18 LCR luciferase reporter. Reagents: siRNA pool against human genes, 40 nM. Time to read-out: 72 h. Read-out: 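HPV18 LCR reporter light per well, converted to plate-wise z-scores that exclude control wells, and averaged over triplicate plates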. Scale: mean z-score and z-score: higher = stronger reporter signal, weaker E2 silencing. Call rule: 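Mean z ≥ 2 together with z ≥ 2 in two or more of the three replicates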.
Here is a random part of about 21,000 reagents tested. 497 of them (2.4%) count as active. 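Higher z means weaker E2 silencing; only reporter increases were scored, and knock-downs that hurt cell survival may mask genuine repressor factors.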 A number with no mark means an inactive call.

gene symbol | mean z-score | z-score, replicate A | z-score, replicate B | z-score, replicate C
DMPK (DM1 protein kinase) | -1.9 | -1.21 | -2.09 | -2.38
CLDND1 (claudin domain containing 1) | -1.4 | -1.39 | -1.5 | -1.32
SREK1 (splicing regulatory glutamic acid and lysine rich protein 1) | -1.56 | -1.71 | -1.86 | -1.11
SLC11A1 | 0.09 | 0.37 | -0.21 | 0.1
SRP9 (signal recognition particle 9) | -0.04 | 0.01 | 0.05 | -0.19
ZBTB33 (zinc finger and BTB domain containing 33) | -0.02 | 0.46 | -0.43 | -0.1
CFL1 (cofilin 1) | -0.24 | -1.37 | 0.25 | 0.41
SPON2 (spondin 2) | 0.14 | 0 | 0.42 | 0.01
BMPR1B (bone morphogenetic protein receptor type 1B) | -1.08 | -0.51 | -1.29 | -1.44
SMPD1 (sphingomyelin phosphodiesterase 1) | -1.4 | -1.68 | -1.85 | -0.67
SNX31 (sorting nexin 31) | -0.72 | -0.47 | -1.02 | -0.68
GNRHR2 (gonadotropin releasing hormone receptor 2 (pseudogene)) | 0.57 | 0.24 | 0.74 | 0.74
CBX8 (chromobox 8) | 0.18 | 0.29 | – | 0.07
MYG1 (MYG1 exonuclease) | 1.38 | 0.99 | 1.42 | 1.72
PPIAP19 (peptidylprolyl isomerase A pseudogene 19) | -1.86 | -2.23 | -1.73 | -1.62
GDPD5 (glycerophosphodiester phosphodiesterase domain containing 5) | -0.31 | -0.18 | -0.56 | -0.19
H2AC7 (H2A clustered histone 7) | -0.21 | -0.17 | -0.17 | -0.3
LINC02175 (long independently transcribed non-coding RNA 2175) | 0.03 | -0.02 | 0.16 | -0.04
CXCR6 (C-X-C motif chemokine receptor 6) | 1.27 | 1.3 | 1.52 | 0.99
LAMP1 (lysosome associated membrane protein 1) | -0.05 | 0.35 | -0.18 | -0.33
MAB21L4 (mab-21 like 4) | -0.36 | -0.13 | -0.52 | -0.44
HPS6 (HPS6 biogenesis of lysosomal organelles complex 2 subunit 3) | -1.27 | -1.22 | -1.23 | -1.37
LOC344382 | -0.05 | 0.3 | -0.05 | -0.39
CNOT6L (CCR4-NOT transcription complex subunit 6 like) | 1.13 | 1.05 | 1.04 | 1.3
ZNF614 (zinc finger protein 614) | 1.47 | 1.39 | 1.31 | 1.7
MROH2B (maestro heat like repeat family member 2B) | 1.77 | 1.9 | 1.58 | 1.82
C1QTNF8 (C1q and TNF related 8) | -0.77 | -1.05 | -0.45 | -0.8
IL1R1 (interleukin 1 receptor type 1) | 0.87 | 1.29 | 0.9 | 0.41
EPHX2 (epoxide hydrolase 2) | -1.03 | -0.65 | -1.29 | -1.16
SERPINA9 (serpin family A member 9) | 2.03 | 2.17 | 1.91 | 1.99
DNAJA1 (DnaJ heat shock protein family (Hsp40) member A1) | 0.37 | 0.7 | 0.3 | 0.13
C1orf226 (chromosome 1 open reading frame 226) | 0.23 | 0.32 | -0.14 | 0.52
SLC5A7 | 0.67 | 0.03 | 0.45 | 1.54
GIPC1 (GIPC PDZ domain containing family member 1) | 0.13 | -0.1 | 0.36 | 0.12
LOC285344 (retired record) | -0.36 | -0.49 | -0.36 | -0.24
CDK19 (cyclin dependent kinase 19) | -0.05 | -0.05 | -0.03 | -0.07
WDR86 (WD repeat domain 86) | 0.3 | 0.44 | 0.21 | 0.27
RPL36A (ribosomal protein L36a) | -0.53 | -0.58 | -0.48 | -0.54
LLPH (LLP homolog, long-term synaptic facilitation factor) | -1.17 | -1.1 | -1.21 | -1.2
MGAT3 | 0.03 | 0.17 | 0.15 | -0.23
XIAP (X-linked inhibitor of apoptosis) | -1.62 | -1.53 | -1.57 | -1.75
KATNBL1 (katanin regulatory subunit B1 like 1) | 0.12 | -0.06 | 0.57 | -0.15
CR1L (complement C3b/C4b receptor 1 like) | -0.24 | -0.09 | -0.36 | -0.25
CGB3 (chorionic gonadotropin subunit beta 3) | -0.55 | -0.42 | -0.66 | -0.55
GRB7 (growth factor receptor bound protein 7) | -0.31 | -0.15 | -0.43 | -0.36
DDX10 (DEAD-box helicase 10) | -0.99 | -0.64 | -1.31 | -1.01
LOC402300 (retired record) | 0.48 | 0.38 | 0.71 | 0.34
NPY5R (neuropeptide Y receptor Y5) | 0.67 | 0.71 | 0.69 | 0.61
MIR99AHG (mir-99a-let-7c cluster host gene) | -0.38 | -0.43 | -0.75 | 0.03
DNAAF11 (dynein axonemal assembly factor 11) | 0.14 | -0.14 | 0.55 | 0.01
ZNF343 (zinc finger protein 343) | 1.18 | 0.87 | 1.5 | 1.15
CYP26A1 (cytochrome P450 family 26 subfamily A member 1) | -0.09 | -0.15 | -0.03 | -0.08
ATP6V0A4 (ATPase H+ transporting V0 subunit a4) | 0.11 | 0.26 | 0.15 | -0.09
YAP1 (Yes1 associated transcriptional regulator) | -0.68 | -0.2 | -0.96 | -0.89
CCZ1P-OR7E38P (CCZ1P-OR7E38P readthrough) | -0.16 | -0.3 | 0.17 | -0.34
KLHL1 (kelch like family member 1) | -1.74 | -1.63 | -1.45 | -2.13
TRIM27 (tripartite motif containing 27) | -0.75 | -0.83 | -0.67 | -0.76
POP5 (POP5 ribonuclease P/MRP subunit) | 1.69 | 2.1 | 1.54 | 1.44
CDK17 (cyclin dependent kinase 17) | 1.48 | 1.37 | 1.42 | 1.66
AGAP2 (ArfGAP with GTPase domain, ankyrin repeat and PH domain 2) | -0.53 | -0.5 | -0.63 | -0.47
POLD3 (DNA polymerase delta 3, accessory subunit) | 2.97 (active) | 3.21 | 2.57 | 3.12
PTPRN (protein tyrosine phosphatase receptor type N) | 0.99 | 1.34 | 0.8 | 0.84
ZNF675 (zinc finger protein 675) | 0.51 | 0.56 | 0.73 | 0.25
PYGO1 (pygopus family PHD finger 1) | -0.16 | -0.25 | -0.1 | -0.11
WDR7 (WD repeat domain 7) | -1.49 | -1.44 | -1.61 | -1.42
ODF1 (outer dense fiber of sperm tails 1) | -0.1 | 0.16 | -0.17 | -0.28
OR12D2 (olfactory receptor family 12 subfamily D member 2) | 0.41 | 0.63 | 0.25 | 0.34
DMRT3 (doublesex and mab-3 related transcription factor 3) | -1.39 | -1.48 | -1.29 | -1.39
RASSF9 (Ras association domain family member 9) | 2.04 (active) | 2.01 | 2.19 | 1.91
MED16 (mediator complex subunit 16) | 0.79 | 0.98 | 0.82 | 0.58
LOC389107 (retired record) | -1.17 | -1.46 | -1.08 | -0.96
SLCO5A1 | -0.04 | -0.3 | 0.03 | 0.14
BCL2 (BCL2 apoptosis regulator) | -0.7 | -0.49 | -0.83 | -0.79
